Test results: patent publication EP4296674A1 (Université Toulouse III - Paul Sabatier, dated 2023)

Tests used:
[1] = molecular target: T1, N-terminal His6-tagged HadD(H42F) of Mycobacterium tuberculosis (Mycobacterium tuberculosis); assay: coproduction in E. coli, IMAC purification through the His tag on HadD, SEC
T1 chain: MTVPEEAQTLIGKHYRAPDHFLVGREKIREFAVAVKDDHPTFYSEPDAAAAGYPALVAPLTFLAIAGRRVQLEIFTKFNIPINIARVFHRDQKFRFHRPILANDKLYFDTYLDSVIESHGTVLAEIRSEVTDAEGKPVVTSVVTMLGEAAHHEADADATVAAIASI

[2] = molecular target: T2, N-terminal His6-tagged HadD(H42Q) of Mycobacterium tuberculosis (Mycobacterium tuberculosis); assay: as above
T2 chain: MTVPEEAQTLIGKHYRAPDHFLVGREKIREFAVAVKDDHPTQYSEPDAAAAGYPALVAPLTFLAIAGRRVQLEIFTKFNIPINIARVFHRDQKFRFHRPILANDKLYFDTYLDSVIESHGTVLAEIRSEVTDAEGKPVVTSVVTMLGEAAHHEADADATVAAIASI

Row | Binder | binding result [1] | binding result [2]
1 | HadB(H41F) of Mycobacterium tuberculosis (enzyme) MALREFSSVKVGDQLPEKTYPLTRQDLVNYAGVSGDLNPIFWDDEIAKVVGLDTAIAHGMLTMGIGGGYVTSWVGDPGAVTEYNVRFTAVVPVPNDGKGAELVFNGRVKSVDPESKSVTIALTATTGGKKIFGRAIASAKLA | binds | –
2 | HadB protein of Mycobacterium tuberculosis (untagged) (enzyme) MALREFSSVKVGDQLPEKTYPLTRQDLVNYAGVSGDLNPIHWDDEIAKVVGLDTAIAHGMLTMGIGGGYVTSWVGDPGAVTEYNVRFTAVVPVPNDGKGAELVFNGRVKSVDPESKSVTIALTATTGGKKIFGRAIASAKLA | binds | binds
